Drawing on patent publication US20140050778A1, “NUCLEIC ACID BINDING COMPOUNDS, METHODS OF MAKING, AND USE THEREOF” (UNIVERSITY OF ROCHESTER, priority 2010, published 2014), this text covers Hill coefficient for two compounds.

For the data set, the system named is (CUG)10 RNA (SEQ ID NO: 3). The data set is described as follows: SPR binding to immobilized biotinylated RNA. Particulars: binding to (CUG)10. The method, then:
SPR binding measurements were performed on a Biacore-X instrument (Biacore, Inc., Uppsala, Sweden) with two flow channels (FC1 and FC2). 5′-Biotinylated-RNA sequences, with a C6 linker separating the biotin label from the RNA (Integrated DNA Technologies Inc.) were immobilized on streptavidin (Rockland Immunochemicals) functionalized carboxylmethyl dextran coated sensor chips (CM5, G.E. Healthcare) using EDC/NHS (Advanced ChemTech) coupling chemistry. Filtered (0.2μ), degassed and autoclaved HBS-N buffer (0.01M Hepes, pH=7.4, 0.15 M NaCl) was employed as sample and as running buffer for all SPR experiments. A typical protocol for an experiment is as follows: A CM5 sensor chip was allowed to equilibrate to room temperature and then docked into the instrument. […] Binding measurements were performed by flowing various concentrations of the compounds to be analyzed over the immobilized RNA and recording the reference-subtracted (FC2−FC1) sensorgrams. […]
This technique allows the association and dissociation rates (ka and kd), equilibrium binding constants (KD), and the binding stoichiometry (n) to be measured in a label-free format (Liu and Wilson, “Quantitative Analysis of Small Molecule-nucleic Acid Interactions with a Biosensor Surface and Surface Plasmon Resonance Detection,” Methods Mol. Biol. 613:1-23 (2010), which is hereby incorporated by reference in its entirety).

`CCc1nc2cc3ccccc3cc2cc1C(=O)N1CCC[C@H]1C(=O)N[C@@H](C/C=C\C[C@H](NC(=O)[C@@H]1CCCN1C(=O)c1cc2cc3ccccc3cc2nc1CC)C(=O)N[C@@H](CCCCN)C(=O)NCCCN)C(=O)N[C@@H](CCCCN)C(=O)NCCCN` [Compound 4]: the Hill coefficient (commonly a measure of the steepness of the concentration-response curve) was found to be 1.9.

For the compound `CCc1nc2cc3ccccc3cc2cc1C(=O)N1CCC[C@H]1C(=O)N[C@@H](C/C=C/C[C@H](NC(=O)[C@@H]1CCCN1C(=O)c1cc2cc3ccccc3cc2nc1CC)C(=O)N[C@@H](CCCCN)C(=O)NCCCN)C(=O)N[C@@H](CCCCN)C(=O)NCCCN` [Compound 5], the Hill coefficient is recorded as 1.5.
